Tests used:
[1] = target: wild-type Met BoNT/A1 (Metabiologics A1080116)
[2] = target: LHN/A1 with an EK cleavage site (DDDDK) inserted into the activation loop

Protein	proteolytic cleavage, SDS-PAGE [1]	proteolytic cleavage, SDS-PAGE [2]
Factor Xa (NEB #P8010) (protein) chain 1: IVGGRDCAEGECPWQALLVNEENEGFCGGTILNEFYVLTAAHCLHQAKRFTVRVGDRNTEQEEGNEMAHEVEMTVKHSRFVKETYDFDIAVLRLKTPIRFRRNVAPACLPEKDWAEATLMTQKTGIVSGFGRTHEKGRLSSTLKMLEVPYVDRSTCKLSSSFTITPNMFCAGYDTQPEDACQGDSGGPHVTRFKDTYFVTGIVSWGEGCARKGKFGVYTKVSNFLKWIDKIMKARAGAAGSRGHSEAPATWTVPPPLPL chain 2: ANSFLEEVKQGNLERECLEEACSLEEAREVFEDAEQTDEFWSKYKDGDQCEGHPCLNQGHCKDGIGDYTCTCAEGFEGKNCEFSTREICSLDNGGCDQFCREERSEVRCSCAHGYVLGDDSKSCVSTERFPCGKFTQGRS	FXa does not cleave the A1 activation loop	–
Enterokinase, light chain (NEB #P8070) (protein) IVGGSDSREGAWPWVVALYFDDQQVCGASLVSRDWLVSAAHCVYGRNMEPSKWKAVLGLHMASNLTSPQIETRLIDQIVINRHYNKRRKNNDIAMMHLEMKVNYTDYIQPICLPEENQVFPPGRICSIAGWGALIYQGSTADVLQEADVPLLSNEKCQQQMPEYNITENMVCAGYDAGGVDSCQGDSGGPLMCQENNRWLLAGVTSFGYQCALPNRPGVYARVPRFTEWIQSFLH	–	cleavage of the modified loop is much less efficient than the wild-type loop
